# PubChem BioAssay AID504761 | Drosophila RNAi Screening Center – 2011
# Test: 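Fly genes whose silencing reduces dengue virus type 2 infection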 (primary screen)
# System: D.Mel-2 cells from Drosophila
# Reagents: long dsRNA against Drosophila genes
# Conditions: infection with dengue virus type 2; dose and infection time not stated
# Detection: 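Per well on two replicate plates, imaging gave the percent of cells positive for viral envelope protein, ranked by infection, and a nuclear count of cells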
# Scale: infection score: higher = more virus-infected cells; cell count: higher = more cells in the well
# Call rule: 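Low infection ranks in the two replicates (chance level up to 0.065) followed by a retest with a 1.5-fold or larger significant decrease, p below 0.05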
# Calls: active = confirmed: knock-down lowers infection; inactive = not picked or not confirmed
# The screen tested about 22,000 reagents; shown is a random part of those with a known target gene and a result. In the full data, 116 (0.52%) are marked active. 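Calls depend on retest data that are not deposited; infection was ranked per plate without normalising between plates; the unit of the infection score is not given.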 Raw values are not corrected between plates. A number with no mark means an inactive call. The numbers tell different reagents against one gene apart. Names joined by + are all predicted targets of the reagent. Reagent sequences are not shown. The record does not give: the amount of reagent, the time to read-out.
Gene,reagent,"infection score, replicate 1","infection score, replicate 2","cell count, replicate 1","cell count, replicate 2"
CG34109,1,2.93,0.8,6898,6391
CG34109,2,2.71,3.19,6826,6699
CG34109,3,2.9,2.29,6579,6510
CG34109,4,11.1,20.4,6521,6371
CG34109,5,2.57,7.26,6879,5908
CycD,1,2.38,24,4657,5170
CycD,2,4.7,2.55,5899,5761
CG44098,1,1.59,8.04,6864,7078
CG44098,2,2.21,2.95,6620,6739
CG44098,3,6.54,9.5,5685,5514
CG44098,4,4.28,5.92,5905,6287
Cp15,1,1.65,5.97,6590,6419
Cp15,2,17.2,10.7,6258,6343
CG14644,1,2.38,1,6004,6711
Mtp,1,33.5,23.8,4745,4891
CG32040,1,0.69,2.2,6492,6877
CG33233,1,2.26,5.95,5891,5392
CheB93a,1,2.03,1.72,6357,6063
NijA,1,3.75,2.11,5766,6253
CG10116,1,5.22,3.7,6530,6897
hydra,1,8.61,1.63,6003,5823
Ilp4,1,3.35,3.87,5886,6225
Ilp4,2,0.89,2.39,6438,5487
GstD5,1,15,8.83,6451,6464
GstD5,2,2.3,0.93,6738,6672
Vps16A,1,2.13,1.97,4825,5116
Spn77Bb + Spn77Bc,1,15.3,0.43,4459,697
Spn77Bb + Spn77Bc,2,12.3,10.8,4742,5038
Wdr59,1,7.75,21.7,6249,5474
CG13070,1,3.13,0.17,5564,6384
CG8312,1,6.46,9.52,5775,5324
Pfdn5,1,3.77,11,6337,6428
alpha-Est4aPsi,1,7.98,4.26,5578,5886
sncRNA:430e + His2A:CG33859 + His2A:CG33817 + 42 more,1,11.5,6.57,1954,2693
CG15344 (retired record),1,22.6,0.7,4067,426
CG32445,1,2.17,4.98,6448,6425
CG9747,1,3.41,4.27,6547,5669
CG9747,2,10.7,16.9,4666,6152
CG33286,1,4.95,2.79,6460,6584
CG33286,2,7.97,9.12,5243,5450
Trm7-34,1,6.67,3.03,1095,6407
retn,1,8.84,13.6,2421,3186
retn,2,8.88,4.2,6319,7171
skl,1,3.41,6.7,6607,6243
CG7550,1,3.46,1.19,5991,6052
CG14803,1,,3.54,386,594
mRpS18A,1,13.2,26.7,4894,4764
GAPcenA,1,2.23,3.86,6144,6421
Axs,1,2.45,1.9,6652,7050
Spt-I,1,8.99,13.9,6619,6539
Spt-I,2,12.5,4.78,3430,6417
phr,1,10.8,15.4,6071,5499
CG9168,1,2.38,4.13,6183,6289
fng,1,3.45,3.03,6326,6303
fng,2,19.2,12.5,5871,6310
fng,3,11.6,1.35,5482,3415
Hs6st,1,1.69,8.1,531,5125
Hs6st,2,7.93,0.8,5675,5768
Hs6st,3,9.91,7.32,6451,6663
Hs6st,4,31.5,11.9,2191,969

Only “infection score, replicate 1” (3 entries from above):
Mtp = 33.5
CG32040 = 0.69
CG33233 = 2.26
